PubChem BioAssay AID1224833 – University of Georgia | 2016

- Test: 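Human genes whose knock-down alters rotavirus replication in monkey cells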 (primary screen)
- Cell system: monkey MA104 kidney cells
- Reagent: siRNA pool against human genes, 50 nM
- Timing: 48 h knock-down before infection; read 24 h after infection
- Treatment: infection with rotavirus strain RV3 two days after transfection; infectious dose for this stage not given
- Read-out: 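Rotavirus antigen per well by fluorescent immunoassay, normalised to non-targeting control wells on each plate and given as a standard z-score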
- Scale: z-score vs non-targeting control: higher = more rotavirus replication than with non-targeting control
- Hit rule: In these data the active calls have z-score vs non-targeting control at about -1 or lower, or at about 1 or higher
- Meaning of the calls: active = z-score beyond 1 either way; inactive = z-score within 1 of zero
This is one part, drawn at random, of about 12,000 reagents tested. About 5,600 of them (46%) were called active. 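Active calls cover z-scores past 1 in both directions, so they include lowered as well as raised rotavirus replication.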

gene	z-score vs non-targeting control	Outcome
BARHL1 (BarH like homeobox 1)	-1.63	active
OXR1 (oxidation resistance 1)	1.86	active
TPH2 (tryptophan hydroxylase 2)	-0.513	inactive
RMI2 (RecQ mediated genome instability 2)	0.571	inactive
OR3A3 (olfactory receptor family 3 subfamily A member 3)	-2.37	active
CCDC159 (coiled-coil domain containing 159)	2.02	active
KRT3 (keratin 3)	-1.19	active
PCP2 (Purkinje cell protein 2)	0.0839	inactive
CAP2 (cyclase associated actin cytoskeleton regulatory protein 2)	0.423	inactive
H3C1 (H3 clustered histone 1)	0.819	inactive
IL1RAPL2 (interleukin 1 receptor accessory protein like 2)	-1.78	active
PPDPF	-1.78	active
GINS4 (GINS complex subunit 4)	-0.151	inactive
R3HDML (R3H domain containing like)	-1.33	active
FHL2 (four and a half LIM domains 2)	-0.34	inactive
ATP5PF (ATP synthase peripheral stalk subunit F6)	-0.931	inactive
CDON (cell adhesion associated, oncogene regulated)	-1.75	active
PRR14L (proline rich 14 like)	-1.66	active
GFM2 (GTP dependent ribosome recycling factor mitochondrial GFM2)	-0.605	inactive
BEGAIN (brain enriched guanylate kinase associated)	-1.18	active
MRPL40 (mitochondrial ribosomal protein L40)	-0.129	inactive
SAP30L (SAP30 like)	-0.689	inactive
RCN1 (reticulocalbin 1)	0.708	inactive
MRPS14 (mitochondrial ribosomal protein S14)	-0.368	inactive
DEFB106B (defensin beta 106B)	0.434	inactive
CLDN15 (claudin 15)	-1.04	active
BROX (BRO1 domain and CAAX motif containing)	-1.31	active
CANX (calnexin)	-0.153	inactive
CXCL5 (C-X-C motif chemokine ligand 5)	0.0103	inactive
TTLL6 (tubulin tyrosine ligase like 6)	1.51	active
ZNF235 (zinc finger protein 235)	-1.58	active
HNRNPU (heterogeneous nuclear ribonucleoprotein U)	-1.34	active
LDHD (lactate dehydrogenase D)	0.676	inactive
PLAU (plasminogen activator, urokinase)	3.53	active
MAIP1 (matrix AAA peptidase interacting protein 1)	0.849	inactive
GJA1 (gap junction protein alpha 1)	-2.84	active
DDN (dendrin)	0.334	inactive
NPR3 (natriuretic peptide receptor 3)	-0.472	inactive
SEPTIN3 (septin 3)	-0.922	inactive
ADRB3 (adrenoceptor beta 3)	-1.29	active
TBC1D9 (TBC1 domain family member 9)	-0.594	inactive
ARL8A (ARF like GTPase 8A)	2.84	active
RP2 (RP2 activator of ARL3 GTPase)	-1.34	active
ACTR5 (actin related protein 5)	0.599	inactive
PCNT (pericentrin)	-0.883	inactive
LZTR1 (leucine zipper like post translational regulator 1)	-0.702	inactive
ZNF181 (zinc finger protein 181)	-1.57	active
TMED10 (transmembrane p24 trafficking protein 10)	-2.81	active
PNISR (PNN interacting serine and arginine rich protein)	-0.656	inactive
SCGB3A1 (secretoglobin family 3A member 1)	-0.327	inactive
KRTAP9-4 (keratin associated protein 9-4)	-0.312	inactive
TSEN15 (tRNA splicing endonuclease subunit 15)	0.301	inactive
HDAC6 (histone deacetylase 6)	1.18	active
SYT1 (synaptotagmin 1)	-0.8	inactive
GPR4 (G protein-coupled receptor 4)	-1.19	active
SLC5A10	-0.843	inactive
ANXA9 (annexin A9)	-1.42	active
MTFR1 (mitochondrial fission regulator 1)	-0.56	inactive
NIPSNAP3B (nipsnap homolog 3B)	-0.463	inactive
EXOSC5 (exosome component 5)	-0.858	inactive
SAMD3 (sterile alpha motif domain containing 3)	0.17	inactive
PLD6 (phospholipase D family member 6)	-1.05	active
DUS1L (dihydrouridine synthase 1 like)	0.0207	inactive
MBTPS1 (membrane bound transcription factor peptidase, site 1)	0.734	inactive
GAREM1 (GRB2 associated regulator of MAPK1 subtype 1)	-0.909	inactive
ARRDC2 (arrestin domain containing 2)	0.805	inactive
P4HA3 (prolyl 4-hydroxylase subunit alpha 3)	-0.132	inactive
SKOR1 (SKI family transcriptional corepressor 1)	-1.19	active
WDR55 (WD repeat domain 55)	-1.21	active
EIF2S3 (eukaryotic translation initiation factor 2 subunit gamma)	-1.6	active
TRABD (TraB domain containing)	-1.84	active
SSU72 (SSU72 homolog, RNA polymerase II CTD phosphatase)	0.236	inactive
SLC4A5	-1.97	active
CYB5B (cytochrome b5 type B)	0.752	inactive
STATH (statherin)	0.75	inactive
ARMH4 (armadillo like helical domain containing 4)	0.618	inactive
SLC25A37	-2.8	active
EMILIN3 (elastin microfibril interfacer 3)	-2.66	active
ZFYVE16 (zinc finger FYVE-type containing 16)	-0.617	inactive
FSD2 (fibronectin type III and SPRY domain containing 2)	-2.18	active
SATB2 (SATB homeobox 2)	-1.98	active
SLC25A53	-1.96	active
PLAC8 (placenta associated 8)	-0.974	inactive
HS1BP3 (HCLS1 binding protein 3)	1.51	active
SIGIRR (single Ig and TIR domain containing)	-0.677	inactive
C11orf65 (chromosome 11 open reading frame 65)	-0.739	inactive
ZNF625 (zinc finger protein 625)	-1.81	active
FZD7 (frizzled class receptor 7)	-1.53	active
CNKSR1 (connector enhancer of kinase suppressor of Ras 1)	1.51	active
FXR2 (FMR1 autosomal homolog 2)	0.491	inactive
DYNLL2 (dynein light chain LC8-type 2)	-1.53	active
TMEM135 (transmembrane protein 135)	1.27	active
DOCK9 (dedicator of cytokinesis 9)	1.12	active
COG1 (component of oligomeric golgi complex 1)	-0.708	inactive
OR4N5 (olfactory receptor family 4 subfamily N member 5)	-1.12	active
KLHL41 (kelch like family member 41)	-1.37	active
SCAND3 (SCAN domain containing 3)	0.573	inactive
DYNC2H1 (dynein cytoplasmic 2 heavy chain 1)	0.657	inactive
NRROS (negative regulator of reactive oxygen species)	1.32	active
UBXN11 (UBX domain protein 11)	-1.18	active
NDFIP1 (Nedd4 family interacting protein 1)	-1.08	active
PNMA6A (PNMA family member 6A)	-0.851	inactive
PRDM13 (PR/SET domain 13)	0.156	inactive
C11orf42 (chromosome 11 open reading frame 42)	2.85	active
ARMC12 (armadillo repeat containing 12)	0.714	inactive
LRRC41 (leucine rich repeat containing 41)	-1.5	active
OR5K4 (olfactory receptor family 5 subfamily K member 4)	0.17	inactive
TFF1 (trefoil factor 1)	-0.536	inactive
FAM171A1 (family with sequence similarity 171 member A1)	-1.81	active
TARS2 (threonyl-tRNA synthetase 2, mitochondrial)	1.24	active
